Anti-infective test results gathered from many reports (values: NIAID ChemDB through PubChem).

Shared fields: whole-cell or culture tests; agent: Punta Toro virus; read-out: EC50

An empty or dashed field is not shown.

compound | cells | strain or isolate | method | result
CC1(C)[C@@H](CO)CC[C@@]1(C)Cn1cnc2c(N)ncnc21 | VERO | - | cytopathic effect | >400 µg/mL
OC[C@H]1O[C@@H](n2ncc(=S)[nH]c2=S)C(O)C1O | VERO | Adames | cytopathic effect | 52 µg/mL
CC(=O)Nn1c(-c2cn(-c3ccccc3)nc2-c2ccccc2)n[nH]c1=S | VERO | - | cytopathic effect | >80 µg/mL
CC1(C)[C@@H](CO)CC[C@@]1(C)Cn1ccc(=O)[nH]c1=O | VERO | - | cytopathic effect | >400 µg/mL
CCOP(=O)(NC(C)C(=O)OC)OC[C@H]1O[C@@H](n2ncc(=O)[nH]c2=O)C(O)C1O | VERO | Adames | cytopathic effect | 260 µg/mL
COC(=O)Nc1nc2c3c(ccc2[nH]1)[C@@]1(C)CCC[C@@](C)(C(=O)OC)C1CC3 | VERO | - | plaque count | >4 µg/mL
Cc1nn2c(-c3cn(-c4ccccc4)nc3-c3ccccc3)nnc2s1 | VERO | - | cytopathic effect | >3.2 µg/mL
COC(=O)[C@]1(C)CCC[C@]2(C)c3cc(Br)c4nc(C)[nH]c4c3CCC12 | VERO | - | plaque count | >4 µg/mL
CC(C)CS[C@@H]1C=C[C@H](n2cnc3c(N)ncnc32)C1 | HeLa | - | cytopathic effect | >3.2 µg/mL
CC(=O)OC[C@H]1O[C@@H](n2ncc(=O)[nH]c2=O)[C@H](OC(C)=O)[C@@H]1OC(C)=O | VERO | Adames | cytopathic effect | 1.77 µg/mL
CC1(C)[C@@H](CCO)C[C@H]1n1nnc2c(Cl)nc(N)nc21 | VERO | - | cytopathic effect | >200 µg/mL
CCOC(=O)CSc1nnc(-c2cn(-c3ccccc3)nc2-c2ccccc2)n1N | VERO | - | cytopathic effect | >16 µg/mL
OC[C@H]1CC(n2cnc3c(NC4CC4)ncnc32)C[C@@H]1CO | VERO | - | - | >100 µg/mL
CC1(C)[C@@H](CCO)C[C@H]1n1nnc2c(N)nc(N)nc21 | VERO | - | cytopathic effect | >400 µg/mL
OC[C@H]1O[C@@H](c2cc(/C=C/Br)c(F)cc2F)C[C@@H]1O | VERO | - | cytopathic effect | >16 µg/mL
CC1(CO)CCC(Cn2ccc(=O)[nH]c2=O)C1(C)C | VERO | - | cytopathic effect | >400 µg/mL
CC1(CO)CCC(Cn2cnc3c(N)nc(N)nc32)C1(C)C | VERO | - | cytopathic effect | >40 µg/mL
O=c1[nH]c(=O)n(C2C[C@H](CO)[C@@H](CO)C2)cc1I | VERO | - | - | >100 µg/mL
CC1(CO)CCC(Cc2nc3ncnc(N)c3[nH]2)C1(C)C | VERO | - | cytopathic effect | >10 µg/mL
CCOC(=O)C1Sc2nnc(-c3cn(-c4ccccc4)nc3-c3ccccc3)n2NC1=O | VERO | - | cytopathic effect | >16 µg/mL
CC1(C)[C@@H](CCO)C[C@H]1n1cnc2c(N)nc(N)nc21 | VERO | - | cytopathic effect | >400 µg/mL
CON=C[C@H]1O[C@@H](n2cnc3c(N)ncnc32)[C@H](O)[C@@H]1O | VERO | - | cytopathic effect | >100 µg/mL
O=c1cc(O)n([C@@H]2O[C@H](CO)C(O)C2O)c(=O)[nH]1 | VERO | Adames | cytopathic effect | 664 µg/mL
COC(=O)[C@]1(C)CCC[C@]2(C)c3cc(Br)c4nc[nH]c4c3CCC12 | VERO | - | plaque count | >4 µg/mL
O=c1cnn([C@@H]2O[C@H](CO)[C@@H](O)[C@H]2O)c(=S)[nH]1 | VERO | Adames | cytopathic effect | 1.07 µg/mL
CCOC(=O)Sc1nnc(-c2cn(-c3ccccc3)nc2-c2ccccc2)n1N | VERO | - | cytopathic effect | >80 µg/mL
COC(=O)[C@]1(C)CCC[C@]2(C)c3ccc4nc5c(nc4c3CCC12)CCCC5 | VERO | - | plaque count | >4 µg/mL
c1ccc(C2=Nn3c(nnc3-c3cn(-c4ccccc4)nc3-c3ccccc3)SC2)cc1 | VERO | - | cytopathic effect | >16 µg/mL
CC1(C)OC2C(O1)[C@@H](COS(=O)(=O)NC(=O)OC1O[C@H](COCc3ccccc3)[C@@H](OCc3ccccc3)[C@H](OCc3ccccc3)[C@H]1OCc1ccccc1)O[C@H]2n1ncc(=O)[nH]c1=O | VERO | Adames | cytopathic effect | 54.1 µg/mL
Nc1ncnc2c1ncn2[C@@H]1O[C@H](C=NOCc2ccccc2)[C@@H](O)[C@H]1O | VERO | - | cytopathic effect | >100 µg/mL
NC(=O)c1[nH]nc([C@@H]2O[C@H](CO)[C@@H](O)[C@H]2O)c1O | VERO | Adames | cytopathic effect | 0.47 µg/mL
CC1(CO)CCC(Cn2nnc3c(=O)[nH]c(N)nc32)C1(C)C | VERO | - | cytopathic effect | >200 µg/mL
CC1(C)[C@@H](CO)CC[C@@]1(C)Cn1nnc2c(N)ncnc21 | VERO | - | cytopathic effect | >400 µg/mL
CC1(CO)CCC(Cn2nnc3c(N)nc(N)nc32)C1(C)C | VERO | - | cytopathic effect | >200 µg/mL
CC(C)Nc1ncnc2c1ncn2C1C[C@H](CO)[C@@H](CO)C1 | VERO | - | - | >100 µg/mL
S=c1[nH]nc(-c2cn(-c3ccccc3)nc2-c2ccccc2)o1 | VERO | - | cytopathic effect | >16 µg/mL
CC1(CO)CCC(Cn2nnc3c(=O)[nH]cnc32)C1(C)C | VERO | - | cytopathic effect | >400 µg/mL

3 of the rows above, restated:

compound	cells	strain or isolate	method	result
CC1(C)OC2C(O1)[C@@H](COS(=O)(=O)NC(=O)OC1O[C@H](COCc3ccccc3)[C@@H](OCc3ccccc3)[C@H](OCc3ccccc3)[C@H]1OCc1ccccc1)O[C@H]2n1ncc(=O)[nH]c1=O	VERO	Adames	cytopathic effect	54.1 µg/mL
OC[C@H]1CC(n2cnc3c(NC4CC4)ncnc32)C[C@@H]1CO	VERO	-	-	>100 µg/mL
CC1(C)[C@@H](CO)CC[C@@]1(C)Cn1nnc2c(N)ncnc21	VERO	-	cytopathic effect	>400 µg/mL

ECn is the concentration giving n% inhibition of infection, replication or growth. Neighbouring rows are from separate reports.